Values quoted from earlier work in patent US20040003429A1, “Pest control system” (priority 2000, published 2004).

Tested on: adult boll weevil Anthonomus granids Boheman
Settings: cited from earlier work

## COP(=O)(NC(C)=O)SC (stereo not shown) [Acephate, O, S dimethyl acetylphosphoramidothicate]
  metabolism of acephate to methamidophos: No metabolism
